For at least one entry, the source does not settle the construct or the ends of the probe. For part of these data: A negative result means that nothing was seen under these conditions. For part of these data: At least one verdict was read from the data and is not stated in words by the source. Protein sequences can lack the tags named with them. For part of these data: The comparison behind a weaker result is the experiment's own reference, which may not be listed here.
Key:
[1] = biological target: T1, TBP-N (Trypanosoma brucei) (UniProt Q0PW89); experiment: fluorescence polarization; settings: affinity essentially as TBP-FL, no clear stoichiometry; FP: 10 mM HEPES pH 8, 0.1 mM TCEP, 0.1 mM EDTA, 175 mM NaCl, 25 C, 5 nM DNA (250 nM for stoichiometry); recombinant protein; protein details: 6xHis tag removed with TEV; label: 5' FAM on strand 1
T1 sequence (looked up, limits assumed): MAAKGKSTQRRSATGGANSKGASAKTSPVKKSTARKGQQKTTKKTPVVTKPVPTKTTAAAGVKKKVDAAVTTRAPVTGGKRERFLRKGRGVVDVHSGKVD

[2] = biological target: T2, TBP-NW (Trypanosoma brucei) (UniProt Q0PW89); experiment: fluorescence polarization; settings: affinity essentially as TBP-FL, no clear stoichiometry; FP: 10 mM HEPES pH 8, 0.1 mM TCEP, 0.1 mM EDTA, 175 mM NaCl, 25 C, 5 nM DNA (250 nM for stoichiometry); recombinant protein; protein details: 6xHis-thioredoxin tag removed with TEV; label: 5' FAM on strand 1
T2 sequence (looked up, limits assumed): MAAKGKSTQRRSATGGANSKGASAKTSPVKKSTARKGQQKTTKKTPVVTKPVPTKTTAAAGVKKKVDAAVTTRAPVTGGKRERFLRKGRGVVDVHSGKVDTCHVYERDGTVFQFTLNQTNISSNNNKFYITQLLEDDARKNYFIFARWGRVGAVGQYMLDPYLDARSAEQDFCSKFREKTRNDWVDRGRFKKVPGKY

[3] = biological target: T3, TBP-RA (Trypanosoma brucei) (UniProt Q0PW89); experiment: fluorescence polarization; settings: FP: 10 mM HEPES pH 8, 0.1 mM TCEP, 0.1 mM EDTA, 175 mM NaCl, 25 C, 5 nM DNA (250 nM for stoichiometry); recombinant protein; protein details: 6xHis tag removed with TEV; label: 5' FAM on strand 1
T3 sequence (looked up, limits assumed): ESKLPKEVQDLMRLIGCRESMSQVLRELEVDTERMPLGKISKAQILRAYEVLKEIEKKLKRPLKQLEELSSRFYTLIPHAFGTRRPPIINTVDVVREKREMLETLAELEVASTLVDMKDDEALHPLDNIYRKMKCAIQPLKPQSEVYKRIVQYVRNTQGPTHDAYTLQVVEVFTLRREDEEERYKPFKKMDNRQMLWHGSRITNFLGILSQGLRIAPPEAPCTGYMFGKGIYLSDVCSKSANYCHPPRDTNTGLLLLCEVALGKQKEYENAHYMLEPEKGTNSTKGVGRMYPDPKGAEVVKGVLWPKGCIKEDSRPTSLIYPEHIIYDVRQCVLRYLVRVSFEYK

[4] = biological target: T4, TBP-WRA (Trypanosoma brucei) (UniProt Q0PW89); experiment: fluorescence polarization; settings: affinity drops substantially; FP: 10 mM HEPES pH 8, 0.1 mM TCEP, 0.1 mM EDTA, 175 mM NaCl, 25 C, 5 nM DNA (250 nM for stoichiometry); recombinant protein; protein details: 6xHis-thioredoxin tag removed with TEV; label: 5' FAM on strand 1
T4 sequence (looked up, limits assumed): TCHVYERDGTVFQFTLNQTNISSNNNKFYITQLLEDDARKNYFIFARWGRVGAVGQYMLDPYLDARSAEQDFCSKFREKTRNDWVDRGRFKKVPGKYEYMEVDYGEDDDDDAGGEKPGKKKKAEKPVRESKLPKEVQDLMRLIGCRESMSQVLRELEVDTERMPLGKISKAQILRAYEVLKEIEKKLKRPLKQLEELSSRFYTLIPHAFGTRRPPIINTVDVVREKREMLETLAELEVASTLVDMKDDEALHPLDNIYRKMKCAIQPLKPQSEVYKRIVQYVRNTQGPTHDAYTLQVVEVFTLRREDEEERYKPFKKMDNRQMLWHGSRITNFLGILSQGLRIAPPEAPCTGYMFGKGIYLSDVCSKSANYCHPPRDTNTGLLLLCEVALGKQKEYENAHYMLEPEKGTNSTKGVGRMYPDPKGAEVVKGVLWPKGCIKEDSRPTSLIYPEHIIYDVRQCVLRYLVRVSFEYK

[5] = biological target: T3, TBP-RA (Trypanosoma brucei); experiment: EMSA; settings: almost completely abolished; EMSA: 50 mM Tris pH 7, 0.1 mM TCEP, 0.1 mM EDTA, 5% glycerol, 100 mM NaCl, room temperature, 0.5 uM DNA; recombinant protein; protein details: 6xHis tag removed with TEV
[6] = biological target: T4, TBP-WRA (Trypanosoma brucei); experiment: EMSA; settings: EMSA: 50 mM Tris pH 7, 0.1 mM TCEP, 0.1 mM EDTA, 5% glycerol, 100 mM NaCl, room temperature, 0.5 uM DNA; recombinant protein; protein details: 6xHis-thioredoxin tag removed with TEV

Sequence | binding result [1] | binding result [2] | binding result [3] | binding result [4] | binding result [5] | binding result [6]
CAGCAGGTACCTGCCCGGCGCCCAGAGAGGAATGCAACACTC (double strand) [template 20] | binds | binds | no binding | binds more weakly |  | 
CCAGGACCAGGGCGCAGATCACCTTGTTCTCCA (double strand) [template 1] |  |  |  |  | binds more weakly | binds more weakly
